Data as given in PubChem BioAssay AID1259414 (Drosophila RNAi Screening Center, 2018).

Assay: 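Fly genes that alter Wolbachia amount inside host cells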 (primary screen)
Cells: Drosophila JW18 cells infected with Wolbachia
Reagent: long dsRNA against Drosophila genes, 0.25 µg dsRNA per well of a 384-well plate
Duration: 5 days
Challenge: cells persistently infected with Wolbachia before knock-down; no added drug
Read-out: 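Imaged fluorescence in situ signal for Wolbachia 23S rRNA per DAPI-counted host cell, given as a robust z-score within each plate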
Scale: Wolbachia per cell robust z: higher = more Wolbachia per host cell than the plate typical
Call rule: 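Active if absolute robust z reaches 1.5 in two or more of three replicates, leaving out multi- or no-target dsRNAs, genes unexpressed in JW18 and A1 wells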
In all, the deposit lists about 24,000 reagents; below is an unselected part of those that have a named target and a result. In the full data, about 1,210 (5%) are marked active. 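Inactive calls also include excluded dsRNAs with several or no targets, genes unexpressed in JW18, and well A1, regardless of score.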 A number with no mark means an inactive call. The numbers tell different reagents against one gene apart. No sequences are given here.

gene knocked down	reagent no.	Wolbachia per cell robust z, rep 1	Wolbachia per cell robust z, rep 2	Wolbachia per cell robust z, rep 3
Fkbp39	1	0.745	0.254	-5.49
Fkbp39	2	-0.791	-0.869	0.358
Fas1	1	-0.583	0.793	0.667
CG34181	1	-1	-5.98	-0.451
CG5846	1	0.36	0.178	-0.638
Dtwd2	1	-0.728	-0.716	-0.725
CG31949	1	-0.441	-0.423	-0.944
car	1	-0.366	-0.408	-1.37
car	2	1.39	0.381	0.859
ppk31	1	0.211	-0.429	0.755
ppk31	2	0.694	0.403	-1.19
PhKgamma	1	0.199	0.758	-0.595
PhKgamma	2	0.0466	-0.459	-0.582
CG14990	1	-0.563	-0.347	-0.51
CG17982	1	0.836	1.5	1.43
CR31700	1	-3.76	-0.607	-1.16
inc	1	0.322	-1.38	0.343
inc	2	0.87	-1.68	-0.0719
inc	3	-0.0352	-0.535	1.49
CG33757	1	-0.263	-4.99	-0.189
CG2116	1	0.447	0.0063	-6.75
CG2116	2	-1.82 (active)	-1.58	0.107
RpS3	1	2.41 (active)	0.574	3.28
Grip75	1	-0.236	0.945	-1.7
CG4949	1	-0.261	0.45	-0.478
CG33178	1	-0.345	-0.761	0.769
CG13101	1	-0.0912	0.523	-0.11
PIG-Wb	1	-0.22	-1.13	-3.75
Or22c	1	-0.313	-1.13	-0.881
Or22c	2	0.089	-0.987	-1.02
CG43049	1	-3.2	-0.686	-1.23
wash	1	-0.145	0.36	-2.37
CdGAPr	1	-1.96	0.595	0.525
CG14298	1	0.195	1.16	-0.846
Rab39	1	-5.11	0.608	-0.85
CG42583	1	0.481	0.541	0.422
CG42583	2	-0.157	0.968	-0.969
prage	1	1.41	-1.86	0.987
prage	2	-0.336	-0.435	-0.00232
prage	3	-0.642	-0.778	-0.0419
Fas2	1	-0.275	0.91	-0.14
Fas2	2	0.0994	0.429	0.179
Fas2	3	-1.31	0.427	0.377
CG12617	1	0.928	0.975	0.0895
CG12617	2	0.918	-0.122	0.33
CG31122	1	-0.314	0.0813	-1.32
CG31122	2	0.385	0.778	-0.558
CkIalpha	1	2.48 (active)	1.58	3.53
CkIalpha	2	0.684	0.245	1.38
CkIalpha	3	-0.693	0.225	-0.587
CkIalpha	4	3.31 (active)	3.66	-0.0876
ValRS-m	1	-0.675	0.139	1.09
CG34384	1	0.866	0.583	0.875
CG34384	2	-5.1	1.33	-0.639
CG34384	3	-0.00594	-0.426	-1.84
CG34384	4	0.162	-0.685	-2.28
tsh	1	0.924	0.649	1.04
CG43307	1	1.17	0.682	-0.055
CG11912	1	0.0689	-6.04	0.921
igl	1	-1.02	0.305	0.201
igl	2	-0.485	0.391	-7.62
CG15576	1	-0.466	0.07	-0.122
CG13243	1	0.627	1.44	0.775
azot	1	0.992	-0.567	-0.352
azot	2	-1.69	-3.75	-1.57
CG31871	1	-0.672	-2.77	-0.476
CG31871	2	-1.61	-1.06	0.35
CG31871	3	0.418	0.0618	0.617
